Measured values reported in patent publication US6369057B1, “Quinoxalines, processes for their preparation and their use” (Aventis Pharma Deutschland GmbH, priority 1991, dated 2002).

What was measured:
[1] = target: HIV reverse transcriptase (RT) (Human immunodeficiency virus type 1 group M subtype B, UniProt P03366); assay: Assay for HIV reverse transcriptase inhibition (scintillation proximity assay); settings: RT from HIV cloned in E. coli; SPA, 60 minutes (37° C.)
Protocol: Assay of the Substances for HIV Reverse Transcriptase Inhibition
The activity of reverse transcriptase (RT) was determined with the aid of a scintillation proximity assay (SPA).
The reagent kit for the RT-SPA was obtained from Amersham/Buchler (Braunschweig).
The enzyme RT (from HIV cloned in E. coli) originated from HT-Biotechnology Ltd, Cambridge, UK.
The assay was carried out using the manufacturer's (Amersham) protocol manual, with the following modifications: bovine serum albumin was added to the assay buffer to give an end concentration of 0.5 mg/ml the assay was carried out in Eppendorf reaction vessels, using 100 μl volume per batch the manufacturer's RT concentrate (5000 U/ml) was diluted in Tris-HCl buffer 20 mM; pH 7.2; 30% of glycerol, to an activity of 15 U per ml the incubation time for the mixtures was 60 minutes (37° C.) after stopping the reaction and “developing” with the bead suspension, 130 μl of mixture were transferred to 4.5 ml of Tris-HCl buffer, 10 mM; pH 7.4; 0.15 M NaCl, and the tritium activity was measured by means of a [formula]-counter.
For a pre-assay for inhibitory activity, the substances were dissolved in DMSO (stock solution c=1 mg/ml), and tested as a 10^−1, 10^−2, 10^−3, etc., dilution in DMSO. […]
The concentration corresponding to a 50% enzyme inhibition was determined from a plot of RT activity versus log Clnh.

[2] = test system: HIV; assay: Test of preparations against HIV in cell culture (T-cell culture assay); assay type: cell-based; settings: lowest concentration where no giant cells were observed; HIV-infected lymphocytes from donor blood, 3 days at 37° C.
Protocol: Test of Preparations Against HIV in Cell Culture
Complete medium additionally contains 20% fetal calf serum and 40 IU/ml recombinant interleukin 2.
Lymphocytes which have been isolated from fresh donor blood by means of Ficoll gradient centrifugation are cultured for 36 hours in complete medium with an addition of 2 μg/ml phytohemagglutinin (Wellcome) at 37° C. under 5% of CO2. After 10% of DMSO has been added, the cells are frozen at a density of 5 [formula]10^6 and stored in liquid nitrogen. For the test, the cells are defrosted, washed in RPMI medium and cultured for 3-4 days in the complete medium.
The test preparations were dissolved in DMSO at a concentration of 16.7 mg/ml and diluted in complete medium to 1 mg/ml.
0.4 ml of medium was introduced into 24-multiwell dishes. 0.1 ml of the dissolved preparation was added to the upper row of the dish, and, by transferring 0.1 ml portions, a geometric dilution series was established. […] The titer of these culture supernatants was determined by end-point titration as 1-5 [formula]10^6 infectious units/ml. […]
The infected cell cultures were examined under the microscope for the presence of giant cells, which indicate active virus multiplication in the culture. The lowest concentration of preparation where no giant cells were observed was determined as inhibitory concentration against HIV. […]

Structure (SMILES)	Reverse Transcriptase Assay IC50 [1]	T-cell culture assay MIC [2]
C=C(C)OC(=O)N1c2cc(Cl)ccc2NC(=S)C1CCCC (stereo not drawn)	0.1 to 1 µg/mL	
CC(C)=CCN1c2cc(Cl)ccc2NC(=O)C1C(C)C (stereo not drawn)	0.1 to 1 µg/mL	<2.0 µg/mL
